Measurements: publication PMC5485444 (Antibiotics, 2017)

Experiment: pH-dependent drug release study from insoluble cyclodextrin polymer disks
Conditions: pH 5.0 vs pH 7.4, approximately 40 days

SMILES: CC[C@H]1OC(=O)[C@H](C)[C@@H](OC2C[C@@](C)(OC)[C@@H](O)[C@H](C)O2)[C@H](C)[C@@H](OC2O[C@H](C)C[C@H](N(C)C)[C@H]2O)[C@](C)(O)C[C@@H](C)/C(=N\NC(=O)C23CC4CC(CC(C4)C2)C3)[C@H](C)[C@@H](O)[C@]1(C)O (stereo partly shown) [AD-EM, adamantane-modified erythromycin]
- Release profile in acidic vs neutral conditions: slightly increased release profile in acidic conditions compared to neutral conditions
